Anti-infective test results gathered from many reports (values: NIAID ChemDB through PubChem).

All rows: tests in culture; agent: HIV-1; cells: MT-2; endpoint: EC50

ECn is the concentration giving n% inhibition of infection, replication or growth.

structure,strain,mutations,read by,value
N#CN=C1N(Cc2ccc(OCc3ccccc3)cc2)[C@H](Cc2ccccc2)[C@H](O)[C@@H](O)[C@@H](Cc2ccccc2)N1Cc1ccc(OCc2ccccc2)cc1,RF,-,hybridisation,<67.3 µM
Nc1noc2ccc(CN3C(=O)N(Cc4ccc5onc(N)c5c4)[C@H](Cc4ccccc4)[C@H](O)[C@H]3CCc3ccccc3)cc12,RF,-,cytopathic effect / MTT,<0.132 µM
CCOP(=O)(COc1ccc(C[C@H](NC(=O)O[C@H]2CO[C@H]3OCC[C@H]32)[C@H](O)CN(CC(C)C)S(=O)(=O)c2ccc(OC)cc2)cc1)OCC,IIIB,ATV-P36 atazanavir-resistant mutant,ATP,0.0056 µM
Nc1nc(N)c2ncn([C@H]3CO[C@@H](CO)O3)c2n1,LAI,RT-K65R,p24,48.1 µM
Nc1ncnc2c1ncn2[C@@H]1O[C@H](CO)C[C@@H]1F,L214F(RT-L214F),RT-L214F,p24,4.4 µM
O=c1[nH]cnc2c1ncn2[C@H]1CC[C@@H](CO)O1,IIIB,-,cytopathic effect / MTT,20 µM
N#CN=C1N(Cc2cccc(N)c2)[C@H](Cc2ccccc2)[C@H](O)[C@@H](O)[C@@H](Cc2ccccc2)N1Cc1cccc(N)c1,RF,-,hybridisation,<0.5 µM
C[C@H](Cn1cnc2c(N)ncnc21)OCP(=O)(O)O,IIIB,-,cytopathic effect / XTT,6.3 µM
Cc1cn([C@H]2C[C@H](N=[N+]=[N-])[C@@H](CO)O2)c(=O)[nH]c1=O,NL4-3,INTG-G140S,-,0.03 µM
N#CN=C1N(CC2CC2)[C@H](Cc2ccccc2)[C@H](O)[C@@H](O)[C@@H](Cc2ccccc2)N1CC1CC1,RF,-,hybridisation,<5 µM
O=c1[nH]cnc2c1ncn2[C@H]1CC[C@@H](CO)O1,HXB2D,-,XTT,4 ± 0.5 µM
Cc1cn([C@H]2C[C@H](N=[N+]=[N-])[C@@H](CO)O2)c(=O)[nH]c1=O,IIIB,-,cytopathic effect / XTT,0.17 µM
CCCN1C(=O)N(CCC)[C@H](Cc2ccccc2)[C@H](O)[C@@H](O)[C@H]1Cc1ccccc1,RF,-,hybridisation,<54 µM
CC(C)CN(C[C@@H](O)[C@H](Cc1ccccc1)NC(=O)O[C@H]1CCOC1)S(=O)(=O)c1ccc(N)cc1,IIIB,D437N,p24 / ELISA,0.0473 µM
Nc1ncnc2c1ncn2CCOCP(=O)(O)O,HXB2D,-,p24,1 µM
CC(C)(C)NC(=O)[C@@H]1CN(Cc2cccnc2)CCN1C[C@@H](O)C[C@@H](Cc1ccccc1)C(=O)N[C@H]1c2ccccc2C[C@H]1O,LAI Laboratory isolate,-,cytopathic effect / MTT,0.019 µM
Cc1cn([C@H]2C[C@H](N=[N+]=[N-])[C@@H](CO)O2)c(=O)[nH]c1=O,IIIB,-,cytopathic effect / MTT,0.09 µM
CCCc1cc(=O)oc2c3c(c4c(c12)OC(C)(C)C=C4)O[C@@H](C)[C@H](C)[C@H]3O,H112-2,-,cytopathic effect / MTT,>2.5 µM
O=C1N(Cc2ccc(CO)cc2)[C@H](Cc2ccccc2)[C@H](O)[C@@H](O)[C@@H](Cc2ccccc2)N1Cc1ccc(CO)cc1,RF,-,plaque count / virus yield,<0.07 µg/mL
Nc1ccn([C@H]2CC[C@@H](CO)O2)c(=O)n1,NL4-3:IN7-3),-,-,0.08 µM
Nc1cccc(CN2C(=O)N(Cc3cccc(-c4ccn[nH]4)c3)[C@H](Cc3ccccc3)[C@H](O)[C@@H](O)[C@H]2Cc2ccccc2)c1,RF,-,-,<0.027 µM
O=C1N(Cc2ccc(O)cc2)[C@H](Cc2ccccc2)[C@H](O)[C@@H](O)[C@@H](Cc2ccccc2)N1Cc1ccc(O)cc1,RF,-,hybridisation,<0.032 µM
Nc1ccn([C@H]2CC[C@@H](CO)O2)c(=O)n1,RF,-,cytopathic effect / MTT,~0.05 µM
Cc1cn([C@H]2C[C@H](N=[N+]=[N-])[C@@H](CO)O2)c(=O)[nH]c1=O,LAI Laboratory isolate,-,cytopathic effect / MTT,0.024 µM
N#Cc1cccc(CN2C(=O)N(Cc3cccc(C#N)c3)[C@H](Cc3ccc(F)cc3)[C@H](O)[C@H]2CCc2ccc(F)cc2)c1,RF,-,cytopathic effect / MTT,<1.56 µM
Cc1cn([C@H]2C[C@H](N=[N+]=[N-])[C@@H](CO)O2)c(=O)[nH]c1=O,HII2-1,-,RT activity,0.03 µM
COc1ccc(S(=O)(=O)N(CC(C)C)C[C@@H](O)[C@H](Cc2ccccc2)NC(=O)O[C@H]2CO[C@H]3OCC[C@H]32)cc1,NL4-3 Laboratory clone,-,cytopathic effect / MTT,0.0003 µM
COc1ccnc(Nc2ccc(Cl)c(Oc3ccccc3C)c2)n1,IIIB,-,cytopathic effect / MTT,>13 µM
CCC(=O)c1cccc(CN2C(=O)N(Cc3cccc(C(=O)CC)c3)[C@H](Cc3ccccc3)[C@H](O)[C@@H](O)[C@H]2Cc2ccccc2)c1,RF,-,-,<0.142 µM
O=C1N(Cc2cccc(CO)c2)[C@H](Cc2ccccc2)[C@H](O)[C@@H](O)[C@@H](Cc2ccccc2)N1Cc1cccc(CO)c1,RF,-,hybridisation,<0.038 µM
Cc1cn([C@H]2C=C[C@@H](CO)O2)c(=O)[nH]c1=O,IIIB,-,cytopathic effect / MTT,6 µM
COCc1ccnc(Nc2ccc(Cl)c(OCC=C(C)C)c2)n1,IIIB,-,cytopathic effect / MTT,>25 µM
O=C(O)P(=O)(O)O,HXB2,TAM1 (M41L D67N L210W T215Y),-,7.9 µM
O=C1N(Cc2ccc(CO)cc2)[C@H](Cc2ccccc2)[C@H](O)[C@@H](O)[C@@H](Cc2ccccc2)N1Cc1ccc(CO)cc1,A018A PRE-AZT,-,virus yield,<0.14 µM
CCCCN1C(=NC#N)N(CCCC)[C@H](Cc2ccccc2)[C@H](O)[C@@H](O)[C@H]1Cc1ccccc1,RF,-,hybridisation,<2.6 µM
CCN(c1nc(F)ccc1NC(C)(C)C)C1CCN(C(=O)c2cc3cc(NC(=O)N4CCN(C)CC4)ccc3[nH]2)CC1,IIIB,I401T,p24 / ELISA,0.0261 µM
CC(C)CN(C[C@@H](O)[C@H](Cc1ccccc1)NC(=O)O[C@H]1CCOC1)S(=O)(=O)c1ccc(N)cc1,LAI Laboratory isolate,-,cytopathic effect / MTT,0.041 µM
Cc1cn([C@H]2C[C@H](N=[N+]=[N-])[C@@H](CO)O2)c(=O)[nH]c1=O,LAI,-,p24,0.003 µM
COC(=O)N[C@H](C(=O)N[C@@H](Cc1ccccc1)[C@@H](O)CN(Cc1ccc(-c2ccccn2)cc1)NC(=O)[C@@H](NC(=O)OC)C(C)(C)C)C(C)(C)C,HXB2,-,cytopathic effect,0.0027 µM
Nc1nc2c(ncn2[C@H]2CO[C@@H](CO)O2)c(=O)[nH]1,LAI,RT-D67N K70R T215Y K219Q L74V,p24,1.04 µM
Cc1cn([C@H]2C[C@H](N=[N+]=[N-])[C@@H](CO)O2)c(=O)[nH]c1=O,RT A62V/V75I/F77L/F116Y/Q151M,RT-A62V V75I F77L F116Y Q151M,p24,2.1 µM
Cc1ncc(COP(=O)(O)O)c(C=O)c1O,IIIB,-,cytopathic effect / XTT,>100 µg/mL
O=C1N(Cc2cccc(CO)c2)[C@H](Cc2ccccc2)[C@H](O)[C@@H](C(Br)Cc2ccccc2)N1Cc1cccc(CO)c1,RF,-,cytopathic effect / MTT,<2.1 µM
N#CN=C1N(Cc2ccccc2)[C@H](Cc2ccccc2)[C@H](O)[C@@H](O)[C@@H](Cc2ccccc2)N1Cc1ccccc1,RF,-,hybridisation,<3.8 µM
CCC/C(=N\O)c1cccc(CN2C(=O)N(Cc3cccc(/C(CCC)=N/O)c3)[C@H](Cc3ccccc3)[C@H](O)[C@@H](O)[C@H]2Cc2ccccc2)c1,RF,-,-,<0.064 µM
Cc1cn([C@H]2C[C@H](N=[N+]=[N-])[C@@H](CO)O2)c(=O)[nH]c1=O,NL4-3,PR-V82A,p24,0.002 µM
NC(=O)c1cccc(CN2C(=O)N(Cc3cccc(C(N)=O)c3)[C@H](Cc3ccc(F)c(F)c3)[C@H](O)[C@H]2CCc2ccc(F)c(F)c2)c1,RF,-,cytopathic effect / MTT,<0.09 µM
O=C1N(Cc2cccc(-c3cn[nH]n3)c2)[C@H](Cc2ccccc2)[C@H](O)[C@@H](O)[C@@H](Cc2ccccc2)N1Cc1cccc(-c2cn[nH]n2)c1,RF,-,-,<0.094 µM
CC(C)(C)OC(=O)N[C@@H](Cc1ccccc1)[C@H](O)CNC[C@@H](O)[C@H](Cc1ccc(OCC(=O)N2CCOCC2)cc1)NC(=O)OC(C)(C)C,NL4-3,-,p24,0.032 µM
CC(C)(C)NC(=O)[C@@H]1C[C@@H]2CCCC[C@@H]2CN1C[C@@H](O)[C@H](Cc1ccccc1)NC(=O)[C@H](CC(N)=O)NC(=O)c1ccc2ccccc2n1,IIIB,-,cytopathic effect / XTT,0.003 µM
CCCCN1C(=O)N(CCCC)[C@H](Cc2ccccc2)[C@H](O)[C@@H](O)[C@H]1Cc1ccccc1,RF,-,hybridisation,<0.68 µM

A second listing of 6 rows from above:

structure | strain | mutations | read by | value
O=c1[nH]cnc2c1ncn2[C@H]1CC[C@@H](CO)O1 | IIIB | - | cytopathic effect / MTT | 20 µM
CCC(=O)c1cccc(CN2C(=O)N(Cc3cccc(C(=O)CC)c3)[C@H](Cc3ccccc3)[C@H](O)[C@@H](O)[C@H]2Cc2ccccc2)c1 | RF | - | - | <0.142 µM
N#Cc1cccc(CN2C(=O)N(Cc3cccc(C#N)c3)[C@H](Cc3ccc(F)cc3)[C@H](O)[C@H]2CCc2ccc(F)cc2)c1 | RF | - | cytopathic effect / MTT | <1.56 µM
N#CN=C1N(CC2CC2)[C@H](Cc2ccccc2)[C@H](O)[C@@H](O)[C@@H](Cc2ccccc2)N1CC1CC1 | RF | - | hybridisation | <5 µM
Cc1cn([C@H]2C=C[C@@H](CO)O2)c(=O)[nH]c1=O | IIIB | - | cytopathic effect / MTT | 6 µM
Cc1cn([C@H]2C[C@H](N=[N+]=[N-])[C@@H](CO)O2)c(=O)[nH]c1=O | NL4-3 | INTG-G140S | - | 0.03 µM

Conditions beyond the fields shown may differ between rows. Blank or dashed fields: not listed here.